Test results reported in PubChem BioAssay AID489010 (Southern Research Specialized Biocontainment Screening …, 2010).

Tested on: M. tuberculosis H37Rv growth inhibition
Experiment: M. tuberculosis H37Rv growth inhibition, dose response, strain H37Rv (AID 489010)
Conditions: measured here: H37Rv growth IC50

For `Cn1ncnc2c(=O)n(C)c(=O)nc1-2`, the IC50 was 1.35 µM.
